From paper PMC12202928, “Bidirectional interdomain crosstalk in a Porphyromonas gingivalis chimeric enzyme coordinates catalytic synergy for aromatic amino acid biosynthesis” (Frontiers in Microbiology, 2025)

What was measured:
Assay in all cases: purified protein
[1] = system: O=C[C@H](O)[C@H](O)COP(=O)(O)O; conditions: 750 μM PEP, 100 μM MnSO4, 50 mM BTP pH 7.4, 37°C
[2] = system: C=C(O[C@@H]1C=C(C(=O)O)C=C[C@H]1O)C(=O)O; conditions: 50 mM BTP pH 7.4, 37°C
C=C(OP(=O)(O)O)C(=O)O = conditions: 750 μM E4P, 100 μM MnSO4, 50 mM BTP pH 7.4, 37°C

Q: With “PgiDAH7PS-CM (Porphyromonas gingivalis ATCC 33277; E269A/E270A/E287A/R291A)” as the substance, how does the Km [1] read?
A: 511 ± 43 µM

Q: What about the kcat [1] of the same substance?
A: 1.28 ± 0.11 s⁻¹

Q: What about the kcat/Km [1] of the same substance?
A: 2500 M⁻¹ s⁻¹

Q: What about the Km [2] of the same substance?
A: 81.1 ± 6.5 µM

Q: What about the kcat [2] of the same substance?
A: 1.04 s⁻¹

Q: And the kcat/Km [2]?
A: 13000 M⁻¹ s⁻¹

Q: What about the Km (C=C(OP(=O)(O)O)C(=O)O) of the same substance?
A: 436 ± 46 µM

Q: And the kcat (C=C(OP(=O)(O)O)C(=O)O)?
A: 1.28 ± 0.11 s⁻¹

Q: And the kcat/Km (C=C(OP(=O)(O)O)C(=O)O)?
A: 2900 M⁻¹ s⁻¹
